Values quoted from earlier work in US20230277682A1 (priority 2022, published 2023).

Legend:
Conditions in all cases: literature; cited from earlier work
[1] = test system: vaccinia virus strain DII
[2] = test system: Newcastle disease virus strain Miyadera (NDV)
arenavirus Junin (JUNV) = test system: arenavirus Junin (JUNV)

Verrucarin A
significant antiviral activity: antiviral activity against vaccinia virus strain DII [1] | antiviral activity against Newcastle disease virus strain Miyadera (NDV) [2] | antiviral activity against arenavirus Junin (JUNV) (arenavirus Junin (JUNV))
